# Source: PubChem BioAssay AID485367 (National Center for Advancing Translational Sciences (NCATS), 2010)
# Sequences of proteins named here, by UniProt entry; tags and fusion partners are left off.
# UniProt O15648, whole entry: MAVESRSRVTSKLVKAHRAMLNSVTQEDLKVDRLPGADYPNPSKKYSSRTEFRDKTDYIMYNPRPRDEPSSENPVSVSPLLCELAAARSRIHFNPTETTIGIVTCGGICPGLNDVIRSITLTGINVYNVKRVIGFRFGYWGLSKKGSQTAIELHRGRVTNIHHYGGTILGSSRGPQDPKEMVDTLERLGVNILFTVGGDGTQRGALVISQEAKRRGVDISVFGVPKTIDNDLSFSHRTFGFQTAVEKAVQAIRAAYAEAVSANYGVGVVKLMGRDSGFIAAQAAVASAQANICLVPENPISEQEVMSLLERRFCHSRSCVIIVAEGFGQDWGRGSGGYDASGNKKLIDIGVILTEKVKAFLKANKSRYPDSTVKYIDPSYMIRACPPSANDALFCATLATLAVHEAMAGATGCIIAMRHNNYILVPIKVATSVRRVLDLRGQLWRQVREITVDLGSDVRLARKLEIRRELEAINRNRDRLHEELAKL
# Only a part is listed here, and it is no random draw. Calls of active or inactive are those of the source. The call rests on the fitted dose curve; in most records, active means well fitted inhibition curve with a large enough effect; inconclusive means small, poorly fitted or top-dose-only effect, or effect the other way; inactive means flat fitted curve, though single readings scatter.
# Target: ATP-dependent 6-phosphofructokinase (Trypanosoma brucei brucei) (UniProt O15648)
# Assay: qHTS Assay to Find Inhibitors of T. brucei phosphofructokinase;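 further: 0% = uninhibited 1x PFK enzyme wells and -100% = no-enzyme wells; nearly all actives have a fitted effect of over 60% in size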
# Conditions: T. brucei PFK, ADP-Glo luminescence; at 57.5 µM (top of the series)
# Source text: NIH Molecular Libraries Probe Production Network [MLPCN] NIH Chemical Genomics Center [NCGC] Grant: 1 R03 MH092153-01 PI Name: Malcolm Walkinshaw, University of Edinburgh NCGC Assay Overview: Various species of the protozoan family Trypanosomatidae are responsible for a range of serious human diseases in tropical and subtropical areas of the world. […] Many of the disorders caused by trypanosomatids are fatal if left untreated, but most currently used drugs are inefficient and toxic. […] A luminescence-based assay for T. brucei PFK activity has been developed which uses luciferase to detect production of ADP. […] To directly measure the ADP product of the PFK reaction, we used the ADP-Glo detection kit (Promega), which utilizes two separate reactions to 1) deplete all remaining uncatalyzed ATP and 2) convert all remaining ADP to ATP, which is then detected through a traditional luciferase-coupled reaction. […]
# NCGC Assay Protocol Summary: NCGC Assay Protocol Summary: Substrate buffer was dispensed into white, solid 1536-well plates at 3uL/well in 0.1M triethanolamine (TEA) buffer, pH 8.0, containing final concentrations of 5 mM MgCl2, 0.01% Tween20, 0.5 mM fructose-6-phosphate (F6P) and 0.1mM ATP. […] The plates were measured on a ViewLux plate reader for luminescent signal using a clear filter with a one second exposure. The %Activity was determined from the corrected luminescence values. […]
row,Structure (SMILES),"activity, negative = inhibition"
1,Cc1ccccc1NP(C)(=O)Nc1ccccc1C,inactive: -11.4%
